Measurements reported in PubChem BioAssay AID1224833 (University of Georgia, 2016)
Screen: 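Host factors restraining rotavirus as candidate antiviral genes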 (primary screen). System: monkey MA104 kidney cells. Knock-down reagent: siRNA pool against human genes, 50 nM. Duration: 48 h knock-down before infection; read 24 h after infection. Challenge: infection with rotavirus strain RV3 two days after transfection; infectious dose for this stage not given. Measured: 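Rotavirus antigen per well by fluorescent immunoassay, normalised to non-targeting control wells on each plate and given as a standard z-score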. Direction: z-score vs non-targeting control: higher = more rotavirus replication than with non-targeting control. Call rule: In these data the active calls have z-score vs non-targeting control at about -1 or lower, or at about 1 or higher. Calls: active = z-score beyond 1 either way; inactive = z-score within 1 of zero.
Shown is a random part of about 12,000 reagents tested. About 5,600 of them (46%) were called active. 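Active calls cover z-scores past 1 in both directions, so they include lowered as well as raised rotavirus replication.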 Unmarked entries are inactive.

gene | z-score vs non-targeting control
NDUFB2 | 3.53 (active)
SLCO3A1 | -3.26 (active)
BLTP3B | -1.13 (active)
USP29 | 0.562
CLDN19 | -1 (active)
SPATA22 | 0.679
PNPLA2 | 0.356
BAK1 | -0.69
PAX3 | 0.926
GSR | -1.95 (active)
CCDC88A | -0.598
ATAD2 | -0.584
NPSR1 | 3.44 (active)
ADAMTSL4 | 0.36
ZNF432 | -1.32 (active)
CA2 | -0.528
CRYGN | -1.8 (active)
CCDC51 | 1.92 (active)
MRPL4 | -0.93
CCDC121 | 0.869
NDUFA1 | -1.21 (active)
EPN1 | -1.69 (active)
OIP5 | 2.25 (active)
APCDD1 | 0.722
CD248 | -1.47 (active)
ANKS6 | -0.625
PDLIM1 | -1.21 (active)
CD59 | 0.4
RGP1 | 2.22 (active)
SMN2 | -1.2 (active)
GEMIN4 | 0.498
COPS8 | 2.81 (active)
DRD3 | -0.806
PARL | 0.23
RPL3 | -0.283
PF4 | -0.886
CTXN3 | -1.17 (active)
HLA-DPB1 | 0.832
LYPLA1 | -1.72 (active)
SP140 | -1.18 (active)
KITLG | -0.206
FCGR2A | -0.944
TMBIM4 | 1.3 (active)
TMEM35A | 0.639
HIBADH | 0.504
PSMG3 | 0.902
ZNF70 | 0
RPL10L | -0.406
WDR83OS | 0.29
CKAP4 | -0.979
RPS25 | 0.112
CAGE1 | -1 (active)
ZNF281 | 0.958
PLCE1 | -1.35 (active)
HOOK3 | -0.0296
USHBP1 | 0.308
PRSS8 | 1.62 (active)
SPRR4 | 1.75 (active)
PSG5 | -0.3
GIT1 | -0.426
FGF19 | -0.912
NUP160 | -0.201
JARID2 | -1.13 (active)
MPRIP | -1.67 (active)
ADD1 | -1.15 (active)
CRISP1 | 1.18 (active)
TRIM43 | -0.926
RBM28 | 1.98 (active)
ACTN1 | 1.32 (active)
FECH | -1.32 (active)
H4C7 | -1.82 (active)
LAT | -0.735
TAF9B | 0.868
LAMB1 | -1.84 (active)
PATJ | 0.174
CHMP4B | -0.773
C19orf25 | -1.88 (active)
EMP2 | 0.384
SETD2 | -0.726
H2BC5 | -0.009
PLEKHA4 | 0.621
EIF4G2 | -1.1 (active)
FXR2 | 0.491
MGAM | -1.58 (active)
COL10A1 | -0.299
NXF1 | -4.66 (active)
TM4SF5 | 1.5 (active)
POLR1F | 0.0256
LRRC57 | -1.19 (active)
OR1A2 | 1.45 (active)
SGSM1 | 0.104
RPUSD1 | -1.25 (active)
BCAP29 | -2.55 (active)
MAZ | -0.9
PCYOX1L | 0.725
LRCH4 | 1.28 (active)
NFASC | -0.896
SLC4A5 | -1.97 (active)
CCT5 | -1.72 (active)
MIIP | 1.81 (active)
GFM2 | -0.605
RASSF4 | -1.85 (active)
OR4F29 | -1.25 (active)
COL6A2 | 0.0473
TSPAN9 | -1.34 (active)
TMEM130 | -1.41 (active)
MOGAT1 | -0.692
TMEM270 | 0.723
LRRC2 | -1.27 (active)
PRB2 | -1.92 (active)
APLP2 | -1.66 (active)
ZNF507 | -1.69 (active)
GPR107 | -1.73 (active)
RCOR1 | -1.61 (active)
MC3R | -1.15 (active)
C10orf67 | -1.13 (active)
ITPRIP | -0.715
CARM1 | 1.25 (active)
H1-10 | 0.284
S1PR5 | 1.94 (active)
NAP1L3 | -0.345
CAPRIN2 | 0.847
DSG2 | -2.05 (active)
SCGB3A2 | 0.795
SKAP2 | 1.46 (active)
TCF19 | 1.8 (active)
BMP10 | 1.12 (active)
ARHGEF10 | -1.68 (active)
ANKRD12 | -2.02 (active)
SPINK14 | -1.49 (active)
TIPE1 | 0.896
POLR3A | -1.53 (active)
CDK5RAP3 | -1.26 (active)
SELENOM | 3.57 (active)
NECAB1 | 2.77 (active)
ATOSA | 1.07 (active)
SRSF12 | 0.794
SLC25A20 | -1.3 (active)
DCBLD2 | -1.26 (active)
OR6M1 | -1.58 (active)

15 consecutive entries already listed:
gene | z-score vs non-targeting control
NDUFA1 | -1.21 (active)
EPN1 | -1.69 (active)
OIP5 | 2.25 (active)
APCDD1 | 0.722
CD248 | -1.47 (active)
ANKS6 | -0.625
PDLIM1 | -1.21 (active)
CD59 | 0.4
RGP1 | 2.22 (active)
SMN2 | -1.2 (active)
GEMIN4 | 0.498
COPS8 | 2.81 (active)
DRD3 | -0.806
PARL | 0.23
RPL3 | -0.283
